# PubChem BioAssay AID1259414 – Drosophila RNAi Screening Center | 2018
# Aim: 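Host factors increasing or decreasing Wolbachia levels in cultured fly cells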 (primary screen)
# System: Drosophila JW18 cells infected with Wolbachia
# Reagents: long dsRNA against Drosophila genes, 0.25 µg dsRNA per well of a 384-well plate
# Time to read-out: 5 days
# Challenge: cells persistently infected with Wolbachia before knock-down; no added drug
# Measurement: 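Automated imaging of bacterial rRNA staining divided by host cell count, reported as plate-normalised robust z-score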
# Reading the numbers: Wolbachia per cell robust z: higher = more Wolbachia per host cell than the plate typical
# Call rule: 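Active if absolute robust z reaches 1.5 in two or more of three replicates, leaving out multi- or no-target dsRNAs, genes unexpressed in JW18 and A1 wells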
# The screen tested about 24,000 reagents; this is a random part of those with a known target gene and a result. Of all reagents, about 1,210 (5%) were called active. 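Inactive calls also include excluded dsRNAs with several or no targets, genes unexpressed in JW18, and well A1, regardless of score.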 Entries without a mark were called inactive. A plus sign joins genes that one reagent is predicted to hit.
Gene,dsRNA,"Wolbachia per cell robust z, rep 1","Wolbachia per cell robust z, rep 2","Wolbachia per cell robust z, rep 3"
Sgs7,DRSC11281,-2.12,0.849,0.887
CG32071,DRSC22298,0.809,0.0563,0.115
CG32071,DRSC25705,-0.163,-0.0949,-0.406
CG3819,DRSC10378,-0.0044,0.4,1.08
CG3819,DRSC27675,0.208,-0.314,0.293
CG13428,DRSC06390,1.61,0.727,0.616
Or85b,DRSC16765,1.19,-0.794,1.07
CG7653,DRSC01886,0.29,0.34,1.24
NKAIN,DRSC04531,0.635,-0.821,-1.62
NKAIN,DRSC22470,-1.51,0.11,0.268
NKAIN,DRSC29918,0.232,-0.145,-0.353
CG17764,DRSC23055,0.0568,-0.299,0.0307
Jon99Fii,DRSC15430,-0.062,-0.457,-0.648
LIMK1,DRSC19811,-3.19,-10,-0.932
tous,DRSC04464,1.72,-2.5,0.758
CG11977,DRSC14454,-0.0141,0.33,0.324
CG13605,DRSC14608,0.186,0.153,0.694
cwo,DRSC17072,0.686,0.168,1.47
cwo,DRSC25219,1.08,0.184,2.33
CG42326,DRSC06483,0.853,-2.02,0.476
CG42326,DRSC06484,0.32,0.0439,0.59
CG42326,DRSC24293,-0.731,-0.329,1.42
CG31917 + Tfb5,DRSC02363,-0.189,-3.25,1.26
CG31917 + Tfb5,DRSC28677,-1.67,-0.952,-0.953
CG13324,DRSC06361,1.54,-1.69,0.43
AlaRS-m,DRSC09660,0.996,0.0556,-0.226
AlaRS-m,DRSC28250,-0.0937,0.231,0.666
galla-1,DRSC05987,-0.105,-2.53,-0.923
Octbeta1R,DRSC16134,-1.2,-5.28,-1.11
Octbeta1R,DRSC30030,0.0614,-1.07,0.742
SWIP,DRSC19540,0.798,-2.26,1.14
CG31244,DRSC21589,0.124,-0.223,0.0702
CG34002 + CR43087,DRSC26854,-0.156,-1.2,-1.77
TwdlY,DRSC19153,-2.36,-0.532,-0.68
ATPsynGL,DRSC03027,0.134,0.475,0.0944
ATPsynGL,DRSC28550,1.17,0.821,1.45
ZnT77C,DRSC11766,-0.691,0.572,-2.17
ZnT77C,DRSC11767,0.328,-0.792,0.48
betaCOP,DRSC20312,0.143 (active),1.53,4.36
betaCOP,DRSC27169,2.06 (active),0.944,2.14
fl(2)d,DRSC07620,0.643 (active),1.79,1.72
Rpp30,DRSC00320,1.13,0.403,-1.02
Jhbp11,DRSC15183,0.477,0.303,0.627
Jhbp11,DRSC29679,0.51,-0.615,-0.164
CG15308,DRSC17995,-1.9,-1.28,-2.11
Gr59d,DRSC22553,0.97,0.83,1.24
RhoGAP102A,DRSC17145,0.148,-6.5,0.676
RhoGAP102A,DRSC38803,1.63,0.345,0.637
chb,DRSC11469,-0.52,-0.385,0.94
chb,DRSC39154,0.216,0.641,0.0786
CG13842,DRSC14692,0.416,0.346,1.79
Rassf,DRSC15612,-0.636,-0.805,-0.318
Rassf,DRSC28891,-1.05,-0.418,0.0282
blanks,DRSC09757,0.0304,-0.692,0.244
Naa60,DRSC10301,0.116,0.673,0.311
Naa60,DRSC26416,-0.26,0.0841,0.267
CG32809,DRSC18507,-4.38 (active),-3.45,-2.55
CG32809,DRSC18592,-0.25,0.411,-1.65
Eip93F,DRSC23072,-3.16,-0.00445,0.189
Eip93F,DRSC27506,-1.33,0.025,-1.54
Cpr49Aa,DRSC07197,0.957,0.79,-1.39
CG3309,DRSC18301,0.194,0.546,0.489
CG3309,DRSC26197,0.1,0.728,0.521
DUBAI,DRSC07281,-0.371,-1.32,-0.208
CG13295,DRSC09969,-0.853,-0.455,-0.027
mRpL10,DRSC00312,-0.0228,0.286,-1.21
swaPsi,DRSC21685,-1.36,-1.16,-0.162
lncRNA:iab8,DRSC22252,-1.19,-1.36,-0.53
lncRNA:iab8,DRSC28445,-0.121,0.325,0.904
